Results of unrelated studies side by side (data: NIAID ChemDB).

Common to all: growth or infection tests; organism: Herpes simplex virus 1; measure: EC50

Rows are shuffled and stem from different studies.

structure	strain	cells	method	result
CCCCCCCc1nc2c(N)ncnc2n1[C@H]1C[C@H](O)[C@@H](CO)O1	G	ESM	cytopathic effect	>40 µg/mL
O=C(OC[C@H]1O[C@@H](OC(=O)c2cc(O)c(O)c(O)c2)[C@H](O)[C@@H](OC(=O)c2cc(O)c(O)c(O)c2)[C@@H]1O)c1cc(O)c(O)c(O)c1	F	CV-1	plaque count	0.15 µg/mL
CCCCC/C=C\c1nc2c(N)ncnc2n1[C@H]1C[C@H](O)[C@@H](CO)O1	G	ESM	cytopathic effect	>40 µg/mL
Nc1nc(Cl)c2ncn([C@@H](CCO)OCCO)c2n1	-	HFF	cytopathic effect	>200 µM
Nc1ncnc2c1ncn2[C@@H]1O[C@H](CO)[C@@H](O)[C@H]1OP(=O)(O)OC[C@H]1O[C@@H](n2cnc3c(N)ncnc32)[C@H](OP(=O)(O)OC[C@H]2O[C@@H](n3cc(/C=C/Br)c(=O)[nH]c3=O)C[C@@H]2O)[C@@H]1O	KOS	PRK	cytopathic effect	0.07 µg/mL
CCCCCCCC/C=C\CCCCCCCOCCOP1(=O)CO[C@@H](Cn2ccc(N)nc2=O)CO1	F	HFF	plaque count	0.03 µM
CCOC(=O)COc1ccc(-c2cc3c(-c4ccnc(NC5CCCC5)n4)ccc(NC4CCCC4)n3n2)cc1	SC16	VERO 76	antigen / hybridisation	3.29 µM
COc1c2c(cc3oc(=O)c(-c4ccc(O)cc4O)cc13)OC(C)(CO)CC2	HF	CV-1	plaque count	>10 µg/mL
Nc1nc2c(ncn2COCCO)c(=O)[nH]1	H31191 (acyclovir-susceptible)	HFF	cytopathic effect	1 µg/mL
CCCCCCCCCCCCCCCCOP(=O)(O)CO[C@H](CO)Cn1ccc(N)nc1=O	E-377	HFF	plaque count	0.3 µM
[O-][n+]1onc2ncnc(N3CC[N+]4(CC3)CC[N+]3(CCN(c5ncnc6no[n+]([O-])c56)CC3)CC4)c21	KUPKA	GMK	plaque count	8.1 µM
CC(C)(C)NC(=O)CN(C(=O)[C@H]1CC[C@@]2(C)C3CC=C4C[C@@H](O)CC[C@]4(C)C3CC[C@]12C)c1ccc(Cl)cc1	KOS	Vero cells	plaque count	16 µM
Cc1cccc(-c2cc3c(-c4ccnc(NC5CCCC5)n4)ccc(NC4CCCC4)n3n2)c1	SC16	VERO 76	antigen / hybridisation	0.22 µM
Cc1cn(C(CCN=[N+]=[N-])OCCO)c(=O)[nH]c1=O	-	HFF	cytopathic effect	>200 µM
CCc1nc2c(N)ncnc2n1[C@H]1C[C@H](O)[C@@H](CO)O1	B2006 (TK-)	ESM	cytopathic effect	300 µg/mL
Nc1ccn(C[C@@H](CO)OCP(=O)(O)O)c(=O)n1	HL-3	HFF	plaque count	3 µM
c1cc(OCC2CC2)cc(-c2cc3c(-c4ccnc(NC5CCCC5)n4)ccc(NC4CCCC4)n3n2)c1	SC16	VERO 76	antigen / hybridisation	0.17 µM
CCCCCCCC/C=C\CCCCCCCOCCCOP(=O)(O)CO[C@H](CO)Cn1ccc(N)nc1=O	HL-3	HFF	plaque count	0.04 µM
CCCCCCCCCCCCOC(=O)c1cc(O)c(O)c(O)c1	HF	CV-1	plaque count	>10 µg/mL
COc1ccc(-c2cc3c(-c4ccnc(NC5CCCC5)n4)ccc(NC4CCCC4)n3n2)cc1	SC16	VERO 76	antigen / hybridisation	0.22 µM
Cn1cc(C(=O)NCc2ccc(Cl)cc2)c(=O)c2cc(CN3CCOCC3)ccc21	13231	HFF	plaque count	3.3 µM
Fc1ccc(-c2cc3c(-c4ccnc(NC5CCC5)n4)ccc(NC4CCC4)n3n2)cc1	SC16	VERO 76	antigen / hybridisation	0.51 µM
CCCCCCCCCCCCCCCCCCOC[C@H](COP(=O)(O)CO[C@H](CO)Cn1ccc(N)nc1=O)OCc1ccccc1	HL-3	HFF	plaque count	0.04 µM
C/C=C\c1nc2c(N)ncnc2n1[C@H]1C[C@H](O)[C@@H](CO)O1	KOS	ESM	cytopathic effect	>100 µg/mL
CCCc1cn([C@H]2C[C@H](O)[C@@H](COP(=O)(O)O)O2)c(=O)[nH]c1=O	B2006 (TK-)	BSC-1	cytopathic effect	>797 µg/mL
Nc1nc2c(ncn2[C@@H](CCO)OCCO)c(=O)[nH]1	-	HFF	cytopathic effect	>200 µM
O=C(O)c1cccc(-c2cc3c(-c4ccnc(NC5CCCC5)n4)ccc(NC4CCCC4)n3n2)c1	SC16	VERO 76	antigen / hybridisation	3.08 µM
CCCCCCCCCCCCCCCCOP1(=O)CO[C@@H](Cn2ccc(N)nc2=O)CO1	F	HFF	plaque count	>1 µM
Oc1cccc(-c2cc3c(-c4ccnc(NC5CCCC5)n4)ccc(NC4CCCC4)n3n2)c1	SC16	VERO 76	antigen / hybridisation	0.66 µM
Nc1ccn(C[C@@H](CO)OCP(=O)(O)O)c(=O)n1	SC16-S1 (TK altered)	MRC-5	plaque count	1.4 µM
CC(=O)Nc1cccc(-c2cc3c(-c4ccnc(NC5CCCC5)n4)ccc(NC4CCCC4)n3n2)c1	SC16	VERO 76	antigen / hybridisation	2.26 µM
O=c1[nH]c(=O)n([C@H]2C[C@H](O)[C@@H](CO)O2)cc1F	McIntyre	PRK	cytopathic effect	10 µg/mL
Brc1ccccc1-c1cc2c(-c3ccnc(NC4CCCC4)n3)ccc(NC3CCCC3)n2n1	SC16	VERO 76	antigen / hybridisation	0.85 µM
O=C[C@H](OC(=O)c1cc(O)c(O)c(O)c1)[C@@H](OC(=O)c1cc(O)c(O)c(O)c1)[C@@H]1OC(=O)c2cc(O)c(O)c(O)c2-c2c(cc(O)c(O)c2O)C(=O)OC[C@H]1O	HF	CV-1	plaque count	0.036 µg/mL

An empty or dashed field is not shown. ECn: concentration that inhibits the pathogen or its effect by n%.